Consider one molecule from patent US20260137677A1, “PROTACS USEFUL AGAINST THE MAIN PROTEASE SARS-COV-2” (Tocris Cookson Limited, priority 2022, published 2026).

Molecules are shown by their SMILES. pIC50: −log10 of the molar value.

For experiment [1], the system named is SARS-CoV-2 (SARS-CoV2/ZG/297-20) in Vero E6 cells. In words: Antiviral assay in Vero E6 cells infected with SARS-CoV-2 (cell viability, Cell Titer Glo). The conditions noted are these: Vero E6, MOI 0.05. As to the method: Vero E6 cells (2×10^4/well) were seeded in 96 well plates one day before the experiment. Pre-treatment, the medium was removed and compounds were added at concentrations varying from 0.1-100 μM. After 24 h incubation, the medium was removed and cells were infected with MOI 0.05 SARS-CoV-2 SARS-CoV2/ZG/297-20. After 1 h infection, the viruses were removed and the same concentration of compounds were added back into the cells. After 72 h incubation at 37° C., EC50 measurements were made using ATP quantification (Cell Titer Glo).

Experiment [2] concerns the target recombinant SARS-CoV-2 main protease (Mpro) (Severe acute respiratory syndrome coronavirus 2, UniProt P0DTD1). In words: IC50 FRET assay, inhibition of recombinant SARS-CoV-2 main protease. The conditions noted are these: Mpro 50 nM, substrate 10 μM.

For `O=C1CCC(N2C(=O)c3cccc(OCCCCCCNC(=O)c4ccc5c(N6C(=O)NC7(CC(c8ccccc8Cl)C7)C6=O)cncc5c4)c3C2=O)C(=O)N1` (stereo not drawn), the “Antiviral Activity 10 uM” value in experiment [1] (10 uM compound) was “E (<0%=E)”. Also, the “Antiviral Activity 50 uM” value in experiment [1] (50 uM compound) is listed as “E (<0%=E)”. Moreover, in experiment [2], the pIC50 is greater than 6.00.

The pIC50 is −log10 of the IC50, conventionally taken in molar units.
